We go through seven molecules from US20240109955A1 (published 2024).

Holding throughout (test): cell-based or functional assay
For assay [1], the target named is SARS-CoV-2 Omicron variant BQ.1.1 spike protein (SARS-CoV-2).
Assay [2] deals with SARS-CoV-2 Omicron variant XBB spike protein (SARS-CoV-2).
Assay [3] concerns the target SARS-CoV-2 Omicron variant BA.2.75.2 spike protein (SARS-CoV-2).
Assay [4] addresses SARS-CoV-2 Omicron variant BA.4/5 spike protein (SARS-CoV-2).
In assay [5] the target is SARS-CoV-2 Omicron variant BQ.1 spike protein (SARS-CoV-2).
Assay [6] concerns the target SARS-CoV-2 Omicron variant B.1.1.529 spike protein (SARS-CoV-2, UniProt P0DTC2 14-1273).
For assay [7], the target named is SARS-CoV-2 spike protein, Delta variant (SARS-CoV-2).
The target of assay [8] is SARS-CoV-2 spike protein, Omicron variant B.1.1.529 (SARS-CoV-2).

B1: B8 (antibody, V domains shown)
VH: EVQLVESGGALIQPGGSLRLSCAASGIIVSANYMSWVRQAPGKGLEWVSVIYSGGSTFYADSVKGRFTISRDNSKNTLYLEMNSLRAEDTAVYYCARDAPILGVSDWGQGTLVTVSS
VL: EIVMTQSPAILSVSPGERATLSCRASQSVAINLAWYQQKPGQAPRLLIYAASSRATGIPGRFSGSGSETNFTLTISSLQSGDFAVYYCQQYITWPPSYTFGQGTKLEIK
B1: the “IC50, pseudovirus neutralization” value in assay [1] is 4.57 ng/mL; in assay [2], 13.4 ng/mL; in assay [3], 12.2 ng/mL; in assay [4], 6.97 ng/mL; in assay [5], 15 ng/mL. For the same molecule, the “IC80, pseudovirus neutralization” value in assay [1] is 21.7 ng/mL; in assay [2], 47.2 ng/mL; in assay [3] it was 27.4 ng/mL; in assay [4], 14.8 ng/mL; in assay [5], 49.6 ng/mL.

B2: MX1029 (antibody)
chain: EIVLTQSPGTLSLSPGETATLSCRASQSFSSDLAWYQQKPGQAPRLLIYGASSRATGIPDRFSGSGSGTDFTLTISRLEPADFAVYYCQQYGSSPPVTFGGGTKVEIKGGSSGEIVLTQSPGTLSLSPGETATLSCRASQSFSSDLAWYQQKPGQAPRLLIYGASSRATGIPDRFSGSGSGTDFTLTISRLEPADFAVYYCQQYGSSPPVTFGGGTKVEIKGGGGSGGSGSGGGGSASGSGEVQLVESGGGLIQPGGSLRLSCAASGVIVSYNYMNWVRQAPGKGLEWVSVIYSGGSTFYADSVRGRFTISRDNSKNTLYLQMNSLRAEDTAVYYCARDLGPAGAFDIWGLGTMVTVSSGGSSGEVQLVESGGGLIQPGGSLRLSCAASGVIVSYNYMNWVRQAPGKGLEWVSVIYSGGSTFYADSVRGRFTISRDNSKNTLYLQMNSLRAEDTAVYYCARDLGPAGAFDIWGLGTMVTVSSASGGSGDKTHTCPPCPAPELLGGPSVFLFPPKPKDTLMISRTPEVTCVVVDVSHEDPEVKFNWYVDGVEVHNAKTKPREEQYNSYVVSVLTVLHQDWLNGKEYKCKVSNKALPAPIEKTISKAKGQPREPQVYTLPPSRDELTKNQVSLTCLVKGFYPSDIAVEWESNGQPENNYKTTPPVLDSDGSFFKKLTVDKSRWQQGNVFSCSVLHEALHSHYTQKSLSLSPG
On to B2, for which, in assay [6], the “IC50, pseudovirus neutralization” value is 3.79 ng/mL and the “IC80, pseudovirus neutralization” value is 6.78 ng/mL.

B3: MX1018 (antibody)
chain: EIVMTQSPAILSVSPGERATLSCRASQSVAINLAWYQQKPGQAPRLLIYAASSRATGIPGRFSGSGSETNFTLTISSLQSGDFAVYYCQQYITWPPSYTFGQGTKLEIKGGSSGEIVMTQSPAILSVSPGERATLSCRASQSVAINLAWYQQKPGQAPRLLIYAASSRATGIPGRFSGSGSETNFTLTISSLQSGDFAVYYCQQYITWPPSYTFGQGTKLEIKGGGGSGGSGSGGGGSASGSGEVQLVESGGALIQPGGSLRLSCAASGIIVSANYMSWVRQAPGKGLEWVSVIYSGGSTFYADSVKGRFTISRDNSKNTLYLEMNSLRAEDTAVYYCARDAPILGVSDWGQGTLVTVSSGGSSGEVQLVESGGALIQPGGSLRLSCAASGIIVSANYMSWVRQAPGKGLEWVSVIYSGGSTFYADSVKGRFTISRDNSKNTLYLEMNSLRAEDTAVYYCARDAPILGVSDWGQGTLVTVSSASGGSGDKTHTCPPCPAPELLGGPSVFLFPPKPKDTLMISRTPEVTCVVVDVSHEDPEVKFNWYVDGVEVHNAKTKPREEQYNSYVVSVLTVLHQDWLNGKEYKCKVSNKALPAPIEKTISKAKGQPREPQVYTLPPSRDELTKNQVSLTCLVKGFYPSDIAVEWESNGQPENNYKTTPPVLDSDGSFFKKLTVDKSRWQQGNVFSCSVLHEALHSHYTQKSLSLSPG
Regarding B3, in assay [6], the “IC50, pseudovirus neutralization” value came out at 4.33 ng/mL and the “IC80, pseudovirus neutralization” value amounted to 11.9 ng/mL.

B4: E8 (antibody, V domains shown)
VH: QVTLRESGPALVKPTQTLTLTCTFSGFSLSTRGVCVSWIRQPPGKALEWLAFIDWDDDKYYNTSLKTRLTISKDTSKNQVVLTMTNVHPVDTATYYCARISSHHGSSWCTTFDYWGQGALVTVSA
VL: DTVMTQSPLSLPVTPGEPASISCRSSQSLLNSNGYNYLDWYVQKPGQSPQLLIYLGSNRASGVPDRFSGSGSGTDFTLKISRVEAEDVGVYYCMQPLQTPLFTFGPGTKVEIK
For B4, the “IC50, pseudovirus neutralization” value in assay [1] came out at 496 ng/mL; in assay [2] it was 61.5 ng/mL; in assay [3], 1.72 ng/mL; in assay [4] it was 0.13 ng/mL; in assay [5], 124 ng/mL. Moreover, the “IC80, pseudovirus neutralization” value in assay [1] worked out at 1800 ng/mL; in assay [2], 705 ng/mL; in assay [3] it was 5.9 ng/mL; in assay [4], 0.49 ng/mL; in assay [5], 5190 ng/mL.

B5: MX1020 (antibody)
chain: DTVMTQSPLSLPVTPGEPASISCRSSQSLLNSNGYNYLDWYVQKPGQSPQLLIYLGSNRASGVPDRFSGSGSGTDFTLKISRVEAEDVGVYYCMQPLQTPLFTFGPGTKVEIKGGSSGDTVMTQSPLSLPVTPGEPASISCRSSQSLLNSNGYNYLDWYVQKPGQSPQLLIYLGSNRASGVPDRFSGSGSGTDFTLKISRVEAEDVGVYYCMQPLQTPLFTFGPGTKVEIKGGGGSGGSGSGGGGSASGSGQVTLRESGPALVKPTQTLTLTCTFSGFSLSTRGVCVSWIRQPPGKALEWLAFIDWDDDKYYNTSLKTRLTISKDTSKNQVVLTMTNVHPVDTATYYCARISSHHGSSWCTTFDYWGQGALVTVSAGGSSGQVTLRESGPALVKPTQTLTLTCTFSGFSLSTRGVCVSWIRQPPGKALEWLAFIDWDDDKYYNTSLKTRLTISKDTSKNQVVLTMTNVHPVDTATYYCARISSHHGSSWCTTFDYWGQGALVTVSAASGGSGDKTHTCPPCPAPELLGGPSVFLFPPKPKDTLMISRTPEVTCVVVDVSHEDPEVKFNWYVDGVEVHNAKTKPREEQYNSYVVSVLTVLHQDWLNGKEYKCKVSNKALPAPIEKTISKAKGQPREPQVYTLPPSRDELTKNQVSLTCLVKGFYPSDIAVEWESNGQPENNYKTTPPVLDSDGSFFKKLTVDKSRWQQGNVFSCSVLHEALHSHYTQKSLSLSPG
Consider B5, for which, in assay [6], the “IC50, pseudovirus neutralization” value was found to be 2.19 ng/mL and the “IC80, pseudovirus neutralization” value stood at 3.61 ng/mL.

B6: MX1087 (antibody)
chain 1: QTVVTQEPSFSVSPGGTVTLTCGLSSGSVSTAYFPSWYQQTPGQAPRTLIYGTNTRSSGVPDRFSGSILGNKAALTITGAQADDESDYYCVLYMGRGIVVFGGGTKLTVLGGSSGEIVMTQSPAILSVSPGERATLSCRASQSVAINLAWYQQKPGQAPRLLIYAASSRATGIPGRFSGSGSETNFTLTISSLQSGDFAVYYCQQYITWPPSYTFGQGTKLEIKGGGGSGGSGSGGGGSASGSGEVQLVESGGALIQPGGSLRLSCAASGIIVSANYMSWVRQAPGKGLEWVSVIYSGGSTFYADSVKGRFTISRDNSKNTLYLEMNSLRAEDTAVYYCARDAPILGVSDWGQGTLVTVSSGGSSGQVQLVESGGGVVQPGRSLRLSCAASGFTLSSYGMHWVRQAPGKGLEWVAVISYDGSNKYYVDSVKGRFTISRDNSKNTLYLQMNSLRAEDTAVYYCRWAYWELLPDYYYGMDVWGQGTTVTVSSASGGSGDKTHTCPPCPAPELLGGPSVFLFPPKPKDTLMISRTPEVTCVVVDVSHEDPEVKFNWYVDGVEVHNAKTKPREEQYNSYVVSVLTVLHQDWLNGKEYKCKVSNKALPAPIEKTISKAKGQPREPQVYTLPPCRDELTKNQVSLWCLVKGFYPSDIAVEWESNGQPENNYKTTPPVLDSDGSFFKKLTVDKSRWQQGNVFSCSVLHEALHSHYTQKSLSLSPG
chain 2: EIVLTQSPGTLSLSPGETATLSCRASQSFSSDLAWYQQKPGQAPRLLIYGASSRATGIPDRFSGSGSGTDFTLTISRLEPADFAVYYCQQYGSSPPVTFGGGTKVEIKGGSSGDTVMTQSPLSLPVTPGEPASISCRSSQSLLNSNGYNYLDWYVQKPGQSPQLLIYLGSNRASGVPDRFSGSGSGTDFTLKISRVEAEDVGVYYCMQPLQTPLFTFGPGTKVEIKGGGGSGGSGSGGGGSASGSGQVTLRESGPALVKPTQTLTLTCTFSGFSLSTRGVCVSWIRQPPGKALEWLAFIDWDDDKYYNTSLKTRLTISKDTSKNQVVLTMTNVHPVDTATYYCARISSHHGSSWCTTFDYWGQGALVTVSAGGSSGEVQLVESGGGLIQPGGSLRLSCAASGVIVSYNYMNWVRQAPGKGLEWVSVIYSGGSTFYADSVRGRFTISRDNSKNTLYLQMNSLRAEDTAVYYCARDLGPAGAFDIWGLGTMVTVSSASGGSGDKTHTCPPCPAPELLGGPSVFLFPPKPKDTLMISRTPEVTCVVVDVSHEDPEVKFNWYVDGVEVHNAKTKPREEQYNSYVVSVLTVLHQDWLNGKEYKCKVSNKALPAPIEKTISKAKGQPREPQVCTLPPSRDELTKNQVSLSCAVKGFYPSDIAVEWESNGQPENNYKTTPPVLDSDGSFFLVSKLTVDKSRWQQGNVFSCSVLHEALHSHYTQKSLSLSPG
B6: in assay [7], the “IC50, pseudovirus neutralization” value is 17.6 ng/mL and the “IC80, pseudovirus neutralization” value came out at 32 ng/mL. In assay [8], the “IC50, pseudovirus neutralization” value came to 1.82 ng/mL and the “IC80, pseudovirus neutralization” value came to 5.24 ng/mL.

B7: MX1089 (antibody)
chain 1: B6 chain 1
chain 2: DTVMTQSPLSLPVTPGEPASISCRSSQSLLNSNGYNYLDWYVQKPGQSPQLLIYLGSNRASGVPDRFSGSGSGTDFTLKISRVEAEDVGVYYCMQPLQTPLFTFGPGTKVEIKGGSSGEIVLTQSPGTLSLSPGERATLSCRASQSVSSSYLAWYQQKPGQAPRLLIYSASSRATGIPDRFSGSGSGTDFTLTISRLEPEDFAVYFCQQYVGLTGWTFGQGTKVEIKGGGGSGGSGSGGGGSASGSGQMQLVQSGPEVKKPGTSVKVSCKASGFTFTSSAVQWVRQRQRLEWIGWIVVGSGNTNYAQKFQERVTITRDMSTSTAYMELSSLRSEDTAVYYCAAPNCSNVVCYDGFDIWGQGTMVTVSSGGSSGQVTLRESGPALVKPTQTLTLTCTFSGFSLSTRGVCVSWIRQPPGKALEWLAFIDWDDDKYYNTSLKTRLTISKDTSKNQVVLTMTNVHPVDTATYYCARISSHHGSSWCTTFDYWGQGALVTVSAASGGSGDKTHTCPPCPAPELLGGPSVFLFPPKPKDTLMISRTPEVTCVVVDVSHEDPEVKFNWYVDGVEVHNAKTKPREEQYNSYVVSVLTVLHQDWLNGKEYKCKVSNKALPAPIEKTISKAKGQPREPQVCTLPPSRDELTKNQVSLSCAVKGFYPSDIAVEWESNGQPENNYKTTPPVLDSDGSFFLVSKLTVDKSRWQQGNVFSCSVLHEALHSHYTQKSLSLSPG
For the molecule B7, in assay [7], the “IC50, pseudovirus neutralization” value is 78.4 ng/mL and the “IC80, pseudovirus neutralization” value was 123 ng/mL. In assay [8], the “IC50, pseudovirus neutralization” value stood at 2.71 ng/mL and the “IC80, pseudovirus neutralization” value amounted to 8.34 ng/mL.
